Calls of active or inactive are those of the source. The calls are words filed in the database; no cut-off is given here.
Experiments:
Format in all cases: functional, organism-based
Staphylococcus aureus = test: Antimicrobial activity against Staphylococcus aureus ATCC 6538 at 15 mg/ml after 24 hrs by micro dilution method
How it was run: (§1)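 Broth microdilution with about 5 × 10^4 CFU/mL per well. Compounds were dissolved in sterile water or in 10% DMSO/water and tested at 15 mg/mL in duplicate. Incubation was 24 h at 35 °C. Growth was scored qualitatively by medium turbidity (growth or no growth) against an inoculated-medium positive control and a medium-only negative control.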

Escherichia coli = test: Antimicrobial activity against Escherichia coli ATCC 25922 at 15 mg/ml after 24 hrs by micro dilution method; how it was run: as §1
[1] = test system: Staphylococcus epidermidis; test: Antimicrobial activity against Staphylococcus epidermidis ATCC 12228 at 15 mg/ml after 24 hrs by micro dilution method; how it was run: as §1
Pseudomonas aeruginosa = test: Antimicrobial activity against Pseudomonas aeruginosa ATCC 27853 at 15 mg/ml after 24 hrs by micro dilution method; how it was run: as §1

In the case of `[N-]=[N+]=NC[C@H]1O[C@H](O[C@@H]2[C@@H](O)[C@H](O)[C@@H](N=[N+]=[N-])C[C@H]2N=[N+]=[N-])[C@H](N=[N+]=[N-])[C@@H](O)[C@@H]1O`, the Activity (Staphylococcus aureus) is reported as “Active”, the Activity (Escherichia coli) is reported as “inactive” and the Activity [1] is reported as “Active”. The Activity (Pseudomonas aeruginosa) was “Active”.

Source: ChEMBL document CHEMBL1143047, “Aminoglycoside antibiotic derivatives: preparation and evaluation of toxicity on cochlea and vestibular tissues and antimicrobial activity” (Bioorg Med Chem, 2007)
